{
  "source": "paper PMC9059125",
  "about": "(Journal of Medicinal Chemistry, 2022)",
  "key": {"[1]": {"assay": "USP-simulated gastric fluid (SGF) peptide stability assay", "details": "USP-SGF pH 1.2, pepsin 1200–2400 U/mg (3.2 mg/mL), 37 °C, 50 μM peptide, sampling up to 24 h"}, "[2]": {"assay": "USP-simulated intestinal fluid (SIF) peptide stability assay", "details": "USP-SIF pH 6.8, pancreatin 1× USP (10 mg/mL), 37 °C, 50 μM peptide, sampling up to 24 h"}},
  "data": [
    {"smiles": "CC[C@H](C)[C@@H]1NC(=O)[C@H](CCC(=O)O)NC(=O)[C@@H]2CCCN2C(=O)[C@H](Cc2cnc[nH]2)NC(=O)[C@H](CC(=O)O)NC(=O)[C@H](Cc2ccc(O)cc2)NC(=O)[C@H](CC(N)=O)NC(=O)[C@@H]2CSSC[C@@H]3NC(=O)CNC(=O)CNC(=O)CNC(=O)[C@H](C)NC(=O)[C@H](C)NC(=O)CNC(=O)CNC(=O)[C@H](CSSC[C@H](NC3=O)C(=O)N[C@@H](CO)C(=O)N[C@@H](CC(=O)O)C(=O)N3CCC[C@H]3C(=O)N[C@@H](CCCNC(=N)N)C(=O)N2)NC1=O", "values": [
      {"measurement": "t1/2 SGF", "setting": "[1]", "value": ">24", "unit": "h"},
      {"measurement": "t1/2 SIF", "setting": "[2]", "value": "1.5 ± 0.1", "unit": "h"}
    ]}
  ]
}
